Measured values from several laboratories, pooled; numbers as filed in NIAID ChemDB.

Shared fields: whole-cell or culture tests; organism: Candida albicans; read-out: MFC

a–b is a range or a potency band. Rows are shuffled and stem from different studies.

N=C(N)c1ccc(OCCCC(O)COc2ccc(C(=N)N)cc2)cc1 ; strain or isolate: 102.96 ; result: 12.5 µg/mL
N/C(=N/N=C1CCCCCC1)SCc1cccc(Cl)c1 ; result: >200 µg/mL
Cc1ccc(OC(CCn2ccnc2)c2ccccc2)cc1 ; strain or isolate: 20 strains ; result: 13.6 µg/mL
c1ccc(CO/N=C2\c3ccccc3OCC2n2cncn2)cc1 ; strain or isolate: ATCC 10231 ; result: >64 µg/mL
CC1(C)CC[C@]2(C(=O)O)CC[C@]3(C)C(=CC[C@@H]4[C@@]5(C)CC[C@H](O[C@@H]6OC[C@H](O)[C@H](O)C6O)[C@@](C)(CO)[C@@H]5CC[C@]43C)[C@@H]2C1 ; strain or isolate: Clinical isolates ; result: >100 µg/mL
CCC(C)CC(C)CCCCCCCCC(=O)N[C@H]1C[C@@H](O)[C@@H](O)NC(=O)[C@@H]2[C@@H](O)CCN2C(=O)[C@H]([C@H](O)CCNC(C)=O)NC(=O)[C@H]([C@H](O)Cc2ccc(O)cc2)NC(=O)[C@@H]2C[C@@H](O)CN2C(=O)[C@H]([C@@H](C)O)NC1=O ; strain or isolate: MY1055 ; result: 4 µg/mL
CCC(C)CC(C)CCCCCCCCC(=O)NC1C[C@H](O)[C@@H](O)NC(=O)[C@@H]2C[C@@H](O)CN2C(=O)[C@H]([C@H](O)CC(N)=O)NC(=O)[C@H](C(O)[C@H](O)c2ccc(O)cc2)NC(=O)[C@@H]2C[C@@H](O)CN2C(=O)[C@H]([C@@H](C)O)NC1=O ; strain or isolate: MY1208 ; result: 2 µg/mL
COC1CC2CCC(C)C(O)(O2)C(=O)C(=O)N2CCCCC2C(=O)OC(C(C)CC2CCC(O)C(OC)C2)CC(=O)C(C)/C=C(\C)C(O)C(OC)C(=O)C(C)C[C@](C)(N(O)C(=O)NN2CCCCC2)/C=C/C=C/C=C/1C ; strain or isolate: WILD TYPE ; result: 0.78 µg/mL
CC(C)N=C(N)c1ccc2nc(-c3ccc4c(c3)Cc3cc(-c5nc6ccc(C(N)=NC(C)C)cc6[nH]5)ccc3-4)[nH]c2c1 ; strain or isolate: Isolate CA783 ; result: 3.12 µg/mL
Cc1cc(-c2nn(CCO)c(C)c2N=O)no1 ; result: >200 µM
CCCCCCSc1cc(C(N)=S)ccn1 ; strain or isolate: 176 ; result: 50 µg/mL
CC1(C)CC[C@]2(C(=O)O)CC[C@]3(C)C(=CC[C@@H]4[C@@]5(C)CC[C@H](OC6O[C@H](CO)[C@@H](O)[C@H](O)[C@H]6OC6O[C@H](CO)[C@@H](O)[C@H](O)[C@H]6O)[C@@](C)(CO)[C@@H]5CC[C@]43C)[C@@H]2C1 ; strain or isolate: Y0109 ; result: >100 µg/mL
Clc1ccc(C(Cn2ccnc2)OCc2csc3c(Cl)cccc23)c(Cl)c1 ; strain or isolate: 16 strains ; result: 16 µg/mL
CCCCCCCCSc1cc(C(N)=S)ccn1 ; strain or isolate: 176 ; result: 200 µg/mL
Cn1c2ccccc2c(=O)c2c([N+](=O)[O-])ccc(CCN)c21 ; strain or isolate: CNCM 1180-79 ; result: 500 µg/mL
Fc1ccc(CC(Cc2ccc(-c3ccccc3)cc2)n2ccnc2)c(F)c1 ; result: 19 µM
C[C@H]1[C@H](O)[C@@H](C)/C=C/C=C/C=C/C=C/C=C/C=C/C=C/[C@H](O[C@@H]2O[C@H](C)[C@@H](O)[C@H](N)[C@@H]2O)C[C@@H]2O[C@](O)(C[C@@H](O)C[C@@H](O)CC[C@H](O)[C@@H](O)C[C@@H](O)CC(=O)O[C@H]1C)C[C@H](O)[C@H]2C(=O)O ; strain or isolate: ATCC 18804 and ATCC 28815 26555 24433 64544 64550 ; result: 0.78–3.13 µg/mL
CCSc1c2ccccc2nc2cccc([N+](=O)[O-])c12 ; strain or isolate: CNCM 1180-79 ; result: >500 µg/mL
N=C(N)c1ccc(OCCCCCCOc2ccc(C(=N)N)cc2)cc1 ; strain or isolate: A39 ; result: 12.5 µg/mL
c1ccc(CC(Cc2ccc(-c3ccccc3)cc2)n2ccnc2)cc1 ; result: >100 µM
N/C(=N/N=C1CCCCCCC1)SCc1cccc(Cl)c1 ; result: >200 µg/mL
Clc1ccc(CO/N=C2\c3ccccc3OCC2n2cncn2)c(Cl)c1 ; strain or isolate: ATCC 10231 ; result: >64 µg/mL
Fc1ccc(OC(CCn2ccnc2)c2ccccc2)c(F)c1 ; strain or isolate: 20 strains ; result: 88 µg/mL
OC(Cn1cncn1)(Cn1cncn1)c1ccc(F)cc1F ; strain or isolate: 2881 ; result: >100 µg/mL
CC1CCCCC/C1=N\Nc1nc(-c2ccccc2)cs1 ; result: 3.12 µg/mL
CCC(C)CC(C)CCCCCCCCC(=O)N[C@H]1C[C@@H](O)[C@@H](O)NC(=O)[C@@H]2[C@@H](O)CCN2C(=O)[C@H]([C@H](O)CCNC)NC(=O)[C@H]([C@H](O)Cc2ccc(O)cc2)NC(=O)[C@@H]2C[C@@H](O)CN2C(=O)[C@H]([C@@H](C)O)NC1=O ; strain or isolate: MY1055 ; result: 2 µg/mL
COC1CC2CCC(C)C(O)(O2)C(=O)C(=O)N2CCCCC2C(=O)OC(C(C)CC2CCC(O)C(OC)C2)CC(=O)C(C)/C=C(\C)[C@@](O)(c2ccc(C)s2)C(OC)C(=O)C(C)CC(C)/C=C/C=C/C=C/1C ; strain or isolate: WILD TYPE ; result: >100 µg/mL
C[C@H]1[C@H](O)[C@@H](C)/C=C/C=C/C=C/C=C/C=C/C=C/C=C/[C@H](O[C@@H]2O[C@H](C)[C@@H](O)[C@H](N)[C@@H]2O)C[C@@H]2O[C@](O)(C[C@@H](O)C[C@@H](O)CC[C@H](O)[C@@H](O)C[C@@H](O)CC(=O)O[C@H]1C)C[C@H](O)[C@H]2C(=O)O ; strain or isolate: ATCC 10231 ; result: 5 µg/mL
CCC(C)CC(C)CCCCCCCCC(=O)NC1CCCNC(=O)[C@@H]2[C@@H](O)[C@@H](C)CN2C(=O)[C@H]([C@H](O)CC(N)=O)NC(=O)[C@H](CCc2ccc(O)cc2)NC(=O)[C@@H]2C[C@@H](O)CN2C(=O)[C@H]([C@@H](C)O)NC1=O ; strain or isolate: MY1055 ; result: 0.5 µg/mL
COc1cc(NC(C)CCCN)c2nc(C(C)(C)C)cc(C)c2c1Oc1cccc(C(F)(F)F)c1 ; result: >20 µg/mL
Fc1ccccc1CC(Cc1ccc(-c2ccccc2)cc1)n1ccnc1 ; result: 19 µM
CCC(C)CC(C)CCCCCCCCC(=O)N[C@H]1C[C@@H](O)[C@@H](O)NC(=O)[C@@H]2[C@@H](O)CCN2C(=O)[C@H]([C@H](O)CCN=CNN)NC(=O)[C@H]([C@H](O)Cc2ccc(O)cc2)NC(=O)[C@@H]2C[C@@H](O)CN2C(=O)[C@H]([C@@H](C)O)NC1=O ; strain or isolate: MY1055 ; result: <0.06 µg/mL
C[C@@H]1O[C@@H](O[C@H]2[C@H](O[C@H]3CC[C@]4(C)[C@H]5CC=C6[C@@H]7CC(C)(C)CC[C@]7(C(=O)O)CC[C@@]6(C)[C@]5(C)CC[C@H]4C3(C)C)OC[C@H](O)[C@@H]2O)[C@H](O)[C@H](O)[C@H]1O ; strain or isolate: Clinical isolates ; result: >100 µg/mL
C[C@@H]1CCC2(OC1)OC1CC3C4C[C@H](O)[C@H]5C[C@@H](O)CC[C@]5(C)C4CC(=O)[C@]3(C)C1[C@@H]2C ; strain or isolate: ATCC 90028 ; result: 10 µg/mL
Clc1ccc(CN(Cc2ccc(-c3ccccc3)cc2)n2ccnc2)c(Cl)c1 ; result: 6.2 µM
NC(=S)c1ccnc(SC2CCCCC2)c1 ; strain or isolate: 176 ; result: 200 µg/mL
Clc1ccc(OC(CCn2ccnc2)c2ccccc2)cc1 ; strain or isolate: 20 strains ; result: 9.8 µg/mL
Fc1ccc(CN(Cc2ccc(-c3ccccc3)cc2)n2ccnc2)c(F)c1 ; result: 200 µM
CCC(C)CC(C)CCCCCCCCC(=O)NC1CCCNC(=O)[C@@H]2[C@@H](O)CCN2C(=O)[C@H]([C@H](O)CC(N)=O)NC(=O)[C@H](C(O)[C@H](O)c2ccc(O)cc2)NC(=O)[C@@H]2C[C@@H](O)CN2C(=O)[C@H]([C@@H](C)O)NC1=O ; strain or isolate: MY1055 ; result: 1 µg/mL
Fc1ccccc1CO/N=C1/c2ccccc2OCC1n1cncn1 ; strain or isolate: ATCC 10231 ; result: >64 µg/mL
CC1(C)CC[C@]2(C(=O)O)CC[C@]3(C)C(=CC[C@@H]4[C@@]5(C)CC[C@H](OC6O[C@H](CO)[C@@H](O)[C@H](O)[C@H]6OC6O[C@H](CO)[C@@H](O)[C@H](O)[C@H]6O)C(C)(C)[C@@H]5CC[C@]43C)[C@@H]2C1 ; strain or isolate: ATCC 90029 ; result: >100 µg/mL
CCSc1ccc([N+](=O)[O-])c2c(SCC)c3ccccc3nc12 ; strain or isolate: CNCM 1180-79 ; result: >500 µg/mL
COc1ccc(CN(Cc2ccc(-c3ccccc3)cc2)n2ccnc2)cc1 ; result: 200 µM
Clc1ccccc1C(c1ccccc1)(c1ccccc1)n1ccnc1 ; strain or isolate: ATCC 10231 ; result: 10 µg/mL
Cc1cc(-c2cc(C)n(CCO)n2)no1 ; result: >200 µM
Clc1ccccc1CN(Cc1ccc(-c2ccccc2)cc1)n1ccnc1 ; result: 33 µM
CN(C)CCCSc1c2ccccc2nc2cccc([N+](=O)[O-])c12 ; strain or isolate: CNCM 1180-79 ; result: >500 µg/mL
Cc1cc(-c2cc(C)on2)n(C)n1 ; result: >200 µM
Cc1ccc([C@@H](CCn2ccnc2)Oc2ccc(Cl)cc2Cl)cc1 ; strain or isolate: 20 strains ; result: 7.12 µg/mL
CCCCCCCCOc1ccc(C(=O)NC2C[C@@H](O)[C@@H](O)NC(=O)C3[C@@H](O)[C@@H](C)CN3C(=O)C(C(C)O)NC(=O)C([C@H](O)[C@@H](O)c3ccc(O)cc3)NC(=O)C3C[C@@H](O)CN3C(=O)C(C(C)O)NC2=O)cc1 ; strain or isolate: 126 strains ; result: 0.31 µg/mL
Clc1ccc(COC(Cn2ccnc2)c2ccc(Cl)cc2Cl)c(Cl)c1 ; strain or isolate: ATCC 10231 ; result: 20 µg/mL
Cc1cc(-c2c(N=O)c(C)nn2CCO)no1 ; result: 66 µM
Clc1ccc(CO/N=C2/c3ccccc3OCC2n2cncn2)c(Cl)c1 ; strain or isolate: ATCC 10231 ; result: >64 µg/mL
CCCCCSc1cc(C(N)=S)ccn1 ; strain or isolate: 3a ; result: 100 µg/mL

The last 7 rows once more:

Cc1cc(-c2cc(C)on2)n(C)n1 ; result: >200 µM
Cc1ccc([C@@H](CCn2ccnc2)Oc2ccc(Cl)cc2Cl)cc1 ; strain or isolate: 20 strains ; result: 7.12 µg/mL
CCCCCCCCOc1ccc(C(=O)NC2C[C@@H](O)[C@@H](O)NC(=O)C3[C@@H](O)[C@@H](C)CN3C(=O)C(C(C)O)NC(=O)C([C@H](O)[C@@H](O)c3ccc(O)cc3)NC(=O)C3C[C@@H](O)CN3C(=O)C(C(C)O)NC2=O)cc1 ; strain or isolate: 126 strains ; result: 0.31 µg/mL
Clc1ccc(COC(Cn2ccnc2)c2ccc(Cl)cc2Cl)c(Cl)c1 ; strain or isolate: ATCC 10231 ; result: 20 µg/mL
Cc1cc(-c2c(N=O)c(C)nn2CCO)no1 ; result: 66 µM
Clc1ccc(CO/N=C2/c3ccccc3OCC2n2cncn2)c(Cl)c1 ; strain or isolate: ATCC 10231 ; result: >64 µg/mL
CCCCCSc1cc(C(N)=S)ccn1 ; strain or isolate: 3a ; result: 100 µg/mL